Anti-infective test results gathered from many reports (values: NIAID ChemDB through PubChem).

Shared fields: target-level tests

Percent inhibition refers to the dose given; in toxicity tests it is the harm to the cells. a–b is a range or a potency band. ICn is the concentration giving n% inhibition. Blank or dashed fields: not listed here. Neighbouring rows are from separate reports.

compound | dose | endpoint | target | species | strain | value
COc1nc(-c2sccc2NC(=O)OCc2ccccc2)nc(C(=O)O)c1O | - | IC50 | HCV polymerase | Hepatitis C virus | - | <50 µM
COc1nc(Nc2ccc3[nH]ncc3c2)nc(N2CCN(C)CC2)n1 | 1 µg/mL | inhibition | DNA polymerase | Hepatitis B virus | - | 69%
CCCCOC(=O)c1ccc(CC)nc1Nc1ccc(N2CCOCC2)cc1 | 0.1 µg/mL | inhibition | NS5B polymerase | Hepatitis C virus | - | 30–55%
O=C(O)c1nc(-c2ccccc2NS(=O)(=O)c2cccc([N+](=O)[O-])c2)[nH]c(=O)c1O | - | IC50 | HCV polymerase | Hepatitis C virus | - | <100 µM
COc1nc(NCCCN2CCOCC2)nc(Nc2ccc3[nH]ncc3c2)n1 | 0.01 µg/mL | inhibition | DNA polymerase | Hepatitis B virus | - | 24%
C=CC1CC1(NC(=O)[C@@H]1C[C@@H](Oc2cc(-c3ccccc3)nc3cc(OC)ccc23)CN1C(=O)[C@@H](NC(=O)OC(C)(C)C)C(C)C)C(=O)NS(=O)(=O)C1CC1 | - | IC50 | NS3/NS4A protease | Hepatitis C virus | BMS | <0.05 µM
C=CC1CC1(NC(=O)[C@@H]1C[C@@H](Oc2cc(-c3ccccc3)nc3cc(OC)ccc23)CN1C(=O)[C@@H](NC(=O)OC(C)(C)C)C(C)(C)C)C(=O)NS(=O)(=O)C1(COC)CC1 | - | IC50 | NS3/NS4A protease | Hepatitis C virus | BMS | <0.05 µM
CC(OC(=O)Nc1ccsc1-c1nc(C(=O)O)c(O)c(=O)[nH]1)c1ccccc1 | - | IC50 | HCV polymerase | Hepatitis C virus | - | <25 µM
CCCCc1ccc(C(=O)O)c(Nc2ccc(N3CCNCC3)cc2)n1 | 0.1 µg/mL | inhibition | NS5B polymerase | Hepatitis C virus | - | 30–55%
C=C[C@H]1C[C@@]1(NC(=O)[C@@H]1C[C@@H](Oc2cc(-c3ccccc3)nc3cc(OC)ccc23)CN1C(=O)[C@@H](NC(=O)OCC1CC1)C(C)(C)C)C(=O)NS(=O)(=O)C1(Cc2ccccc2)CC1 | - | IC50 | NS3/NS4A protease | Hepatitis C virus | BMS | <0.05 µM
CCc1nc(N2CCN(C(=O)c3ccccc3)CC2)cc(N(C)c2ccc(N(C)Cc3ccccc3)cc2)n1 | 0.1 µg/mL | inhibition | NS5B polymerase | Hepatitis C virus | - | 30–55%
COc1nc(Nc2ccc3cn[nH]c3c2)nc(N2CCOCC2)n1 | 0.01 µg/mL | inhibition | DNA polymerase | Hepatitis B virus | - | 30%
CO[C@@H]1[C@H](O)[C@@H](COP(=O)(O)OP(=O)(O)OP(=O)(O)O)O[C@H]1n1ccc(N)nc1=O | - | IC50 | Replicase complex | Hepatitis C virus | - | 4.8 µM
COc1nc(NCCc2c[nH]c3ccccc23)nc(Nc2ccc3cn[nH]c3c2)n1 | 1 µg/mL | inhibition | Nonstructural protein 5B | Hepatitis C virus | - | 39%
COc1ccc(COc2cccc(-c3nc(C(=O)O)c(O)c(=O)[nH]3)c2)cc1 | - | IC50 | HCV polymerase | Hepatitis C virus | - | <100 µM
C=CC1C[C@@]1(NC(=O)[C@@H]1C[C@@H](Oc2cc(-c3ccccc3)nc3cc(OC)ccc23)CN1C(=O)[C@@H](NC(=O)[C@@H](OC)c1ccccc1)C(C)(C)C)C(=O)NS(=O)(=O)C1(CC2CC2)CC1 | - | IC50 | NS3/NS4A protease | Hepatitis C virus | BMS | <0.05 µM
C=C[C@@H]1C[C@]1(NC(=O)[C@H]1C[C@@H](Oc2cc(-c3ccccc3)nc3cc(OC)ccc23)CN1C(=O)[C@H](CC1CCCCC1)NC(=O)OC(C)(C)C)C(=O)NS(=O)(=O)C(F)(F)F | - | IC50 | NS3/NS4A protease | Hepatitis C virus | BMS | <5 µM
O=C(O)c1nc(-c2ccccc2NC(=S)NCc2ccccc2)[nH]c(=O)c1O | - | IC50 | HCV polymerase | Hepatitis C virus | - | <100 µM
C=C[C@@H]1C[C@]1(NC(=O)[C@@H]1C[C@@H](Oc2cc(-c3ccccc3)nc3cc(OC)ccc23)CN1C(=O)[C@@H](NC(=O)OC(C)(C)C)C(C)(C)C)C(=O)NS(=O)(=O)c1cccc([N+](=O)[O-])c1 | - | IC50 | NS3/NS4A protease | Hepatitis C virus | BMS | <0.05 µM
O=C(COc1ccc(Cl)cc1Cl)Nc1ccsc1-c1nc(C(=O)O)c(O)c(=O)[nH]1 | - | IC50 | HCV polymerase | Hepatitis C virus | - | <25 µM
C=C[C@@H]1C[C@]1(NC(=O)[C@@H]1C[C@@H](Oc2cc(-c3ccccc3)nc3cc(OC)ccc23)CN1C(=O)[C@@H](NC(=O)COC)C(C)(C)C)C(=O)NS(=O)(=O)C1CC1 | - | IC50 | NS3/NS4A protease | Hepatitis C virus | BMS | <0.05 µM
CCCCSc1nc(Nc2ccc(N(CC)CC)cc2)cc(N2CCN(C(=O)c3ccncc3)CC2)n1 | 0.1 µg/mL | inhibition | NS5B polymerase | Hepatitis C virus | - | 30–55%
CC[C@H]1C[C@@]1(NC(=O)[C@@H]1C[C@@H](Oc2cc(-c3ccccc3)nc3cc(OC)ccc23)CN1C(=O)[C@H](CC1CCCCC1)NC(=O)OC(C)(C)C)C(=O)NS(=O)(=O)C1CC1 | - | IC50 | NS3/NS4A protease | Hepatitis C virus | BMS | <50 µM
C=C[C@H]1CC1(NC(=O)[C@@H]1C[C@@H](Oc2cc(-c3ccccc3)nc3cc(OC)ccc23)CN1C(=O)[C@@H](NC(=O)OC(C)(C)C)C(C)C)C(=O)O | - | IC50 | NS3/NS4A protease | Hepatitis C virus | BMS | <0.05 µM
CC[C@@H]1C[C@]1(NC(=O)[C@@H]1C[C@@H](Oc2cc(-c3ccccc3)nc3cc(OC)ccc23)CN1C(=O)[C@@H](NC(=O)OCCF)C(C)C)C(=O)NS(=O)(=O)C1CC1 | - | IC50 | NS3/NS4A protease | Hepatitis C virus | BMS | <0.05 µM
O=C(CCC1CCCC1)Nc1ccsc1-c1nc(C(=O)O)c(O)c(=O)[nH]1 | - | IC50 | HCV polymerase | Hepatitis C virus | - | <25 µM
C=C[C@@H]1C[C@]1(NC(=O)[C@@H]1C[C@@H](Oc2cc(-c3ccccc3)nc3cc(OC)ccc23)CN1C(=O)[C@@H](NC(=O)OC(C)(C)C)C(C)C)C(=O)NS(=O)(=O)CC1CC1 | - | IC50 | NS3/NS4A protease | Hepatitis C virus | BMS | <0.5 µM
COc1nc(Nc2ccc3cn[nH]c3c2)nc(NN2CCN(C)CC2)n1 | 0.1 µg/mL | inhibition | DNA polymerase | Hepatitis B virus | - | 12%
C=C[C@@H]1C[C@]1(NC(=O)[C@@H]1C[C@@H](Oc2cc(-c3ccccc3)nc3cc(OC)ccc23)CN1C(=O)[C@@H](NC(=O)C1(O)CC1)C(C)(C)C)C(=O)NS(=O)(=O)C1CC1 | - | IC50 | NS3/NS4A protease | Hepatitis C virus | BMS | <0.05 µM
COc1ccc2c(O[C@@H]3C[C@@H](C(=O)NC4(C(=O)NS(=O)(=O)C5(C6=CCCCC6)CC5)CC4)N(C(=O)[C@@H](NC(=O)OC(C)(C)C)C(C)(C)C)C3)cc(-c3ccccc3)nc2c1 | - | IC50 | NS3/NS4A protease | Hepatitis C virus | BMS | 0.05–0.5 µM

Repeating the final 2 entries:

compound,dose,endpoint,target,species,strain,value
C=C[C@@H]1C[C@]1(NC(=O)[C@@H]1C[C@@H](Oc2cc(-c3ccccc3)nc3cc(OC)ccc23)CN1C(=O)[C@@H](NC(=O)C1(O)CC1)C(C)(C)C)C(=O)NS(=O)(=O)C1CC1,-,IC50,NS3/NS4A protease,Hepatitis C virus,BMS,<0.05 µM
COc1ccc2c(O[C@@H]3C[C@@H](C(=O)NC4(C(=O)NS(=O)(=O)C5(C6=CCCCC6)CC5)CC4)N(C(=O)[C@@H](NC(=O)OC(C)(C)C)C(C)(C)C)C3)cc(-c3ccccc3)nc2c1,-,IC50,NS3/NS4A protease,Hepatitis C virus,BMS,0.05–0.5 µM